Data as given in PMC11329928, “Design, synthesis and structure-activity relationship (SAR) studies of an unusual class of non-cationic fatty amine-tripeptide conjugates as novel synthetic antimicrobial agents” (Frontiers in Pharmacology, 2024).

Legend:
S. pneumoniae D39 = type: cell-based, Streptococcus pneumoniae; conditions: 1 h treatment, C + Y, 37°C, Hill fit
From the text: (§1) First, the substitution of the fatty amino chain of 18 carbon atoms of the reference compound DICAM 2 by either an OMe group (methylated tripeptide DICAM 5) or an amine with 12 carbon atoms (DICAM 9) abolished the activity against all three pathogens. However, the activity remained intact when the chain of the fatty amine of prototypes DICAMs 1 and 4 was two carbon atoms shorter (DICAM 10 and DICAM 12, respectively), based on S. pneumoniae and S. pyogenes results. […] Third, Glu and Ala were tolerated as C-terminal residues of the lipotripeptides. […] In addition, deletion of the C-terminal Glu (DICAM 13) eradicated the activity against S. pneumoniae and S. aureus. However, a delay and small inhibition of S. pyogenes ^T growth was still observed. Fourth, Glu (DICAMs 19 and 20) and Orn (DICAMs 21 and 22) were tolerated as N-terminal residues, with the impact of these modifications being pathogen-dependent. […] SAR studies continued by measuring the dose dependence of DICAM’s activity at T1 with all the compounds found to be active against S. pyogenes or S. aureus in the initial screening, and all but one compound in the case of S. pneumoniae. The OD values of bacterial cultures were monitored after DICAM addition, and the decrease in the number of viable bacteria was measured relative to controls (Figures 4–6; Supplementary Figure S1). As antibacterial efficacy may decline with the bacterium dose in the inoculum ([Belley et al., 2009]; [Udekwu et al., 2009]; [Luca et al., 2013]), the assays were performed using the bacterial concentrations necessary for the fluorescence experiments in Section 2.3 (10^7–10^8 CFU/mL). At these high bacterial densities, MICs were determined as the DICAM concentration at which bacteria neither grow nor are killed (the stationary concentration (SC)), following [Udekwu et al., 2009]. By fitting the logarithmic plot of cell viability decrease vs. the DICAM dose to a Hill function (see Section 5.2.3.1) we were able to determine the maximum variation in viability (Δlogmax = ∆log f - ∆log 0, where ∆log f and ∆log 0 are the upper and lower limits of Δlog) in the assay conditions, the SC concentration (Δlog = 0), the dose required for half-variation in Δlogmax (K 1/2), and the cooperativity of the antimicrobial effect (N H).
(§2) Susceptibility to DICAMs was first tested by growth-inhibition assays at 50 and 100 μM of compound. Briefly, working solutions at 5 mM or 10 mM DICAM in pure DMSO were prepared from DICAM stocks (40 mM in pure DMSO) and diluted with fresh culture medium to 5× the desired final concentration. Aliquots (50 µL) of these solutions were added to 200 µL of bacterium cultures grown to early exponential phase (OD550/600 c. a. 0.15–0.2 in sterile 96-well plates (Cultek, Spain). Incubation continued for 10 h at 37°C and turbidity (OD550/600) values were measured every 20 min to monitor growth and lysis, using a VersaMax microplate reader (Molecular Devices; United Kingdom). Next, the activity dependence on DICAM’s dose was examined by measuring the turbidity of treated and untreated cultures as a function of time. Also, the decay of bacterial viability (CFU/mL) at selected times of treatment was assessed by colony counting on LB-agar or TSA plates after overnight incubation at 37°C. By default, 10 μL of 10-fold serially diluted samples were plated, which set the lower detection limit at 10^2 CFU/mL (10^1 CFU/mL when 100 μL of the undiluted sample was seeded).
(§3) As antibacterial efficacy may decline with the bacterium dose in the inoculum ([Belley et al., 2009]; [Udekwu et al., 2009]; [Luca et al., 2013]), activity assays were performed using the bacterial concentrations required for the fluorescence experiments in Section 2.3 (10^7–10^8 CFU/mL). At such bacterial densities, MICs were determined as the DICAM concentration at which bacteria neither grow nor are killed under assay conditions (the stationary concentration (SC)), as indicated in Section 2.2. […]

S. pyogenes T = assay: Dose dependence of bacterial viability (CFU counting, Hill fit); type: cell-based, Streptococcus pyogenes; conditions: 2 h treatment, BHI, 37°C
From the text: as §1, §2, §3

[1] = test system: human erythrocytes (hRBCs); type: cell-based; conditions: for SI Spn (HC50/SC or IC50av/SC): S. pneumoniae D39, lower bound over both definitions; for SI Spn HC50/SC / SI Spy HC50/SC: selective index; for SI Spn HC50/SC: HC50 over SC for S. pneumoniae D39; for SI Spy HC50/SC: HC50 over SC for S. pyogenes T
[2] = test system: A549, IMR-90 and HeLa cells; conditions: selective index; for SI Spn IC50av/SC: mean of the three IC50 values over SC for S. pneumoniae D39; for SI Spy IC50av/SC: mean of the three IC50 values over SC for S. pyogenes T

Molecule | N H (Hill slope), S. pneumoniae D39 (S. pneumoniae D39) | N H (Hill slope), S. pyogenes T (S. pyogenes T) | SI Spn (HC50/SC or IC50av/SC) [1] | SI Spn HC50/SC [1] | SI Spy HC50/SC [1] | SI Spn IC50av/SC [2] | SI Spy IC50av/SC [2] | SI values (HC50/SC or IC50av/SC), S. pyogenes and S. pneumoniae ([1]; span over both definitions and both pathogens) | SI Spy (HC50/SC or IC50av/SC) ([1]; S. pyogenes T, lower bound over both definitions)
CCCCCCCCCCCCCCCCCCNC(=O)[C@H](CCC(=O)O)NC(=O)[C@H]1CCCN1C(=O)[C@H](CC(N)=O)NC(=O)OCc1ccccc1 [DICAM 1, Cbz-Asn- Pro -Glu-NH-C18H37] | 1.5 ± 0.1 | 1.2 ± 0.1 | ≥ 6.2 | 6.25 | 2.8 | 18.8 | 8.6 | – | –
CCCCCCCCCCCCCCCCNC(=O)[C@H](CCC(=O)O)NC(=O)[C@H]1CCCN1C(=O)[C@H](CC(N)=O)NC(=O)OCc1ccccc1 [DICAM 10, Cbz-Asn- Pro -Glu-NH-C16H33] | 2.3 ± 0.3 | 2.4 ± 0.5 | ≥ 3.2 | 3.2 | 2.2 | 10.6 | 7.2 | – | –
Ala - Pro -Glu-NH-C18H37 · HCl [DICAM 23] | 2.0 ± 0.4 | – | – | – | – | – | – | – | –
CCCCCCCCCCCCCCCCCCNC(=O)[C@H](CCC(=O)O)NC(=O)[C@H]1CCCN1C(=O)[C@@H](N)CCCN [DICAM 22, Orn- Pro -Glu-NH-C18H37 · HCl] | ∼4 | – | – | 0.6 | – | 2.9 | – | – | –
CCCCCCCCCCCCCCCCCCNC(=O)[C@H](CCC(=O)O)NC(=O)[C@H]1CCCN1C(=O)[C@H](CCC(=O)O)NC(=O)OCc1ccccc1 [DICAM 19, Cbz-Glu- Pro -Glu-NH-C18H37] | ∼4 | 1.6 ± 0.3 | – | 40 | 31.6 | 15 | 11.8 | 12–40 | –
CCCCCCCCCCCCCCCCCCNC(=O)[C@H](CCC(=O)O)NC(=O)[C@H]1CCCN1C(=O)[C@H](C)NC(C)=O [DICAM 24, Ac-Ala- Pro -Glu-NH-C18H37] | 2.7 ± 0.7 | 3.0 ± 0.4 | – | 2.2 | 2.3 | 9.3 | 9.3 | – | –
CCCCCCCCCCCCCCCCCCNC(=O)[C@H](CCC(=O)O)NC(=O)[C@H]1CCCN1C(=O)[C@H](C)N [DICAM 4, Ala- Pro -Glu-NH-C18H37 ·HCl] | 1.8 ± 0.3 | 1.2 ± 0.1 | – | 1.75 | 0.7 | 10 | 4 | – | –
CCCCCCCCCCCCCCCCCCNC(=O)[C@H](CCC(=O)O)NC(=O)[C@H]1CCCN1C(=O)[C@@H](N)CCC(=O)O [DICAM 20, Glu- Pro -Glu-NH-C18H37 · HCl] | ∼4 | 1.3 ± 0.3 | – | 2 | 0.75 | 25.4 | 9.5 | – | –
CCCCCCCCCCCCCCCCCCNC(=O)[C@H](C)NC(=O)[C@H]1CCCN1C(=O)[C@H](C)N [DICAM 14, Ala- Pro -Ala-NH-C18H37 · HCl] | – | 2.1 ± 0.9 | – | 1 | 1.6 | 0.2 | 0.33 | – | –
CCCCCCCCCCCCCCCCCCNC(=O)[C@H](CCC(=O)O)NC(=O)[C@H]1CCCN1C(=O)[C@H](CCCN)NC(=O)OCc1ccccc1 [DICAM 21, Cbz-Orn- Pro -Glu-NH-C18H37] | 4 ± 1 | 1.0 ± 0.5 | – | 1.5 | 1.2 | 10.7 | 8.6 | – | –
CCCCCCCCCCCCCCCCCCNC(=O)[C@H](CCC(=O)O)NC(=O)[C@H]1CCCN1C(=O)[C@@H](N)CC(N)=O [DICAM 2, Asn- Pro -Glu-NH-C18H37 ·HCl] | 2.1 ± 0.2 | 1.4 ± 0.3 | – | 2 | 1.6 | 10.6 | 8.7 | – | –
CCCCCCCCCCCCCCCCCCNC(=O)[C@H](CCC(=O)O)NC(=O)[C@H]1CCCN1C(=O)[C@H](C)NC(=O)OCc1ccccc1 [DICAM 3, Cbz-Ala- Pro -Glu-NH-C18H37] | 3.7 ± 0.5 | 1.7 ± 0.1 | – | 1.7 | 3.7 | 9.4 | 20 | – | ≥ 3.7

Counter-ions that a name gives are not always drawn.
